Compound potency records, mixed from different reports. Data source: NIAID ChemDB in PubChem.

All rows: tests on isolated targets; species: Candida albicans

Lines come from different laboratories, so protocols vary. An empty or dashed field is not shown. ICn: concentration for n% inhibition.

smiles	measure	strain or isolate	target	result
O=C(Nc1nc2ccc(NC(=O)[C@H]3CCC[C@@H](NCc4ccc5ccccc5c4)C3)cc2s1)C1CCCC1	IC50	-	N-myristoyltransferase	>0.01 µM
COC(=O)C(CCSC)NC(=O)C1(Cc2ccccc2C)CCN(C(=O)[C@@H](N)CS)CC1	IC50	-	Farnesyl-protein transferase	0.35 µM
CC(=O)[O-].CC(N)C[NH2+]C(C(=O)O)[C@H]1O[C@@H](n2ccc(=O)[nH]c2=O)[C@H](O)[C@@H]1O	IC50	-	Chitin synthase	>100 µM
O=C(O)c1ccccc1	Ki	Nce103	Beta-carbonic anhydrase	24.4 µM
CCOC(=O)c1oc2cccc(OCCCNCCc3cccnc3)c2c1C	IC50	CY1002	N-myristoyltransferase	0.39 µM
CN(C)C(=O)c1ccc2nc(NC(=O)[C@@H]3CCC[C@H](NCc4ccc5ccccc5c4)C3)sc2c1	IC50	-	N-myristoyltransferase	0.086 µM
O=C(COc1ccccc1O)N[C@@H](Cc1ccccc1)C[C@H](O)[C@H](Cc1ccccc1)NC(=O)COc1ccccc1O	IC50	H12	Aspartic protease SAP2	25 µM
CCC(C)CC(C)CCCCCCCCC(=O)N[C@H]1C[C@@H](O)[C@@H](O)NC(=O)[C@@H]2[C@@H](O)CCN2C(=O)[C@H]([C@H](O)CCNC)NC(=O)[C@H]([C@H](O)Cc2ccc(O)cc2)NC(=O)[C@@H]2C[C@@H](O)CN2C(=O)[C@H]([C@@H](C)O)NC1=O	IC50	MY1055	Glucan synthase	0.007 µM
O=C(COc1ccccc1)N[C@@H](Cc1ccccc1)C[C@H](O)[C@H](Cc1ccccc1)NC(=O)COc1ccccc1	IC50	H12	Aspartic protease SAP2	4 µM
NC(=O)[C@@H](Cc1cnc[nH]1)NC(=O)[C@@H](Cc1cccc2ccccc12)NC(=O)C1c2ccccc2-c2ccccc21	IC50	-	Geranylgeranyltransferase	<3 µM
CC(N)C(=O)N(C)C(C(=O)O)[C@H]1O[C@@H](n2ccc(=O)[nH]c2=O)[C@H](O)[C@@H]1O	IC50	-	Chitin synthase	>100 µM
O=C(NCCNCc1ccc2ccccc2c1)c1cccc2nc(NC(=O)C3CCCCC3)sc12	IC50	-	N-myristoyltransferase	1 µM
CC(C)(C)OC(=O)N[C@@H](Cc1ccccc1)[C@H](O)C[C@@H](Cc1ccccc1)C(=O)N[C@@H](CCC(=O)O)C(=O)N[C@@H](Cc1ccccc1)C(N)=O	IC50	-	Aspartic proteinase	>100 µM
CCCCCCCC/C=C\CC/C=C/[C@H]1C[C@H]([C@](O)(CC(=O)O)C(=O)O)C(=O)O1	IC50	-	Geranylgeranyltransferase I	15 µM
CCC(C)CC(C)CCCCCCCCC(=O)N[C@H]1C[C@@H](O)[C@@H](O)NC(=O)[C@@H]2[C@@H](O)CCN2C(=O)[C@H]([C@H](O)CCN(C)C)NC(=O)[C@H]([C@H](O)Cc2ccc(O)cc2)NC(=O)[C@@H]2C[C@@H](O)CN2C(=O)[C@H]([C@@H](C)O)NC1=O	IC50	MY1055	Glucan synthase	0.005 µM
CCC1CCC(C(=O)Nc2nc3ccc(C(=O)N(C)C)cc3s2)CC1	IC50	-	N-myristoyltransferase	0.042 µM
COc1ccc2nc(NC(=O)C(=O)C(C(=O)c3ccc(-c4ccccc4)cc3)C3OC(=O)c4ccccc43)sc2c1	IC50	-	Geranylgeranyl-protein transferase I	0.07 µM
O=C(c1ccc(Cl)cc1)N1CCC(=Cc2ccc(C3=NCCO3)cc2)CC1	IC50	-	Oxidosqualene cyclase	0.009 µM
Cn1c(NC(=O)C2CCCCC2)nc2cc(C(=O)NCCNCc3ccc4ccccc4c3)ccc21	IC50	-	N-myristoyltransferase	>10 µM
CCOC(=O)c1oc2cccc(OCCCNCc3ccncc3)c2c1C	IC50	CY1002	N-myristoyltransferase	1.9 µM
CC(C)(C)OC(=O)N[C@@H](Cc1ccccc1)[C@@H](O)C[C@H](Cc1ccccc1)C(=O)N[C@@H](CCC(=O)O)C(=O)N[C@@H](Cc1ccccc1)C(N)=O	IC50	-	Aspartic proteinase	>100 µM
CCC(C)CC(C)CCCCCCCCC(=O)N[C@H]1C[C@@H](O)[C@@H](O)NC(=O)[C@@H]2[C@@H](O)CCN2C(=O)[C@H]([C@H](O)CC#N)NC(=O)[C@H]([C@H](O)Cc2ccc(O)cc2)NC(=O)[C@@H]2C[C@@H](O)CN2C(=O)[C@H]([C@@H](C)O)NC1=O	IC50	MY1055	Glucan synthase	0.1 µM
CCOc1c(Cl)cc2nc(S(N)(=O)=O)sc2c1Cl	IC50	-	Farnesyl-protein transferase	>100 µM
CC[C@H](C)[C@H](NC(=O)[C@@H](Cc1ccccc1)C[C@@H](O)[C@H](Cc1ccccc1)NC(=O)OC(C)(C)C)C(=O)N[C@@H](Cc1ccccc1)C(N)=O	IC50	-	Aspartic proteinase	>100 µM
Cc1cccc(C)c1OCC(=O)N[C@@H](Cc1ccccc1)C[C@@H](O)[C@H](Cc1ccccc1)NC(=O)COc1c(C)cccc1C	IC50	H12	Aspartic protease SAP2	>50 µM
CC[C@H](C)[C@H](NC(=O)[C@@H](Cc1ccccc1)C[C@H](O)[C@H](Cc1ccccc1)NC(=O)OC(C)(C)C)C(=O)N[C@@H](Cc1ccccc1)C(N)=O	IC50	-	Aspartic proteinase	>100 µM
CN(C)CCOc1ccccc1/C=N\N1CCN(C2Cc3ccccc3Sc3ccc(Cl)cc32)CC1	IC50	-	Geranylgeranyl-protein transferase I	0.19 µM
CC(C)(C)OC(=O)N[C@@H](Cc1ccccc1)[C@@H](O)C[C@@H](Cc1ccccc1)C(=O)N[C@@H](CCC(=O)O)C(=O)N[C@@H](Cc1ccccc1)C(N)=O	IC50	-	Aspartic proteinase	>100 µM
O=C(COc1ccccc1)N[C@@H](Cc1ccccc1)C[C@@H](O)[C@H](Cc1ccccc1)NC(=O)COc1ccccc1	IC50	H12	Aspartic protease SAP2	>50 µM
CC(C)(C)OC(=O)N[C@@H](Cc1ccccc1)[C@@H](O)C[C@H](Cc1ccccc1)C(=O)N[C@@H](CCC(N)=O)C(=O)N[C@@H](Cc1ccccc1)C(N)=O	IC50	-	Aspartic proteinase	>100 µM
O=C(COc1ccccc1O)N[C@@H](Cc1ccccc1)C[C@@H](O)[C@H](Cc1ccccc1)NC(=O)COc1ccccc1O	IC50	H12	Aspartic protease SAP2	>50 µM

The first 5 rows once more:

smiles,measure,strain or isolate,target,result
O=C(Nc1nc2ccc(NC(=O)[C@H]3CCC[C@@H](NCc4ccc5ccccc5c4)C3)cc2s1)C1CCCC1,IC50,-,N-myristoyltransferase,>0.01 µM
COC(=O)C(CCSC)NC(=O)C1(Cc2ccccc2C)CCN(C(=O)[C@@H](N)CS)CC1,IC50,-,Farnesyl-protein transferase,0.35 µM
CC(=O)[O-].CC(N)C[NH2+]C(C(=O)O)[C@H]1O[C@@H](n2ccc(=O)[nH]c2=O)[C@H](O)[C@@H]1O,IC50,-,Chitin synthase,>100 µM
O=C(O)c1ccccc1,Ki,Nce103,Beta-carbonic anhydrase,24.4 µM
CCOC(=O)c1oc2cccc(OCCCNCCc3cccnc3)c2c1C,IC50,CY1002,N-myristoyltransferase,0.39 µM